Compound potency records, mixed from different reports. Data source: NIAID ChemDB in PubChem.

Common to all: growth or infection tests; organism: Mycobacterium avium complex; measure: MIC

Conditions beyond the fields shown may differ between rows.

smiles,strain or isolate,result
CCCCNC(=O)O[C@H]1C(O[C@@H]2[C@@H](C)[C@H](O[C@H]3C[C@@](C)(OC)[C@@H](OC(C)=O)[C@H](C)O3)[C@@H](C)C(=O)O[C@H](CC)[C@@](C)(O)[C@H](O)[C@@H](C)/C(=N/OCCCC3CCCCC3)[C@H](C)CC2(C)O)O[C@H](C)C[C@@H]1N(C)C,20045,0.2 µg/mL
COc1ccc(Sc2ncnc3nc[nH]c23)cc1,NJ211,>12.8 µg/mL
Cc1c(CNc2cccc3cnccc23)cnc2nc(N)nc(N)c12,NJ168,≤0.13 µg/mL
CC(C)N=C(N)/N=C(\N)NOCCCOc1cc(Cl)c(Cl)cc1Cl,1102,32 µg/mL
Cc1c(CNc2ccc3c4c(cccc24)-c2ccccc2-3)cnc2nc(N)nc(N)c12,NJ3404,≤0.13 µg/mL
COc1ccccc1Sc1ccncc1,NJ211,>12.8 µg/mL
CC[C@H]1OC(=O)[C@H](C)[C@@H](OC2C[C@@](C)(OC)[C@@H](O)[C@H](C)O2)[C@H](C)[C@@H](O[C@@H]2O[C@H](C)C[C@H](N(C)C)[C@H]2O)C(C)(O)C[C@@H](C)/C(=N\OCC2CCCCC2)[C@H](C)[C@@H](O)[C@]1(C)O,20096,>50 µg/mL
C#CCNC(=O)O[C@H]1C(O[C@@H]2[C@@H](C)[C@H](O[C@H]3C[C@@](C)(OC)[C@@H](OC(C)=O)[C@H](C)O3)[C@@H](C)C(=O)O[C@H](CC)[C@@](C)(O)[C@H](O)[C@@H](C)/C(=N/OCCCC3CCCCC3)[C@H](C)CC2(C)O)O[C@H](C)C[C@@H]1N(C)C,20096,0.2 µg/mL
CCCCCCCCCCCCO/N=C1\[C@H](C)CC(C)(O)[C@H](O[C@@H]2O[C@H](C)C[C@H](N(C)C)[C@H]2O)[C@@H](C)[C@H](OC2C[C@@](C)(OC)[C@@H](O)[C@H](C)O2)[C@@H](C)C(=O)O[C@H](CC)[C@@](C)(O)[C@H](O)[C@H]1C,20039,25 µg/mL
NC[C@H]1O[C@H](O[C@H]2[C@H](O)[C@@H](O[C@H]3O[C@H](CO)[C@@H](O)[C@H](N)[C@H]3O)[C@H](N)C[C@@H]2N)[C@H](O)[C@@H](O)[C@@H]1O,CIPT 140310012,10 µg/mL
Cc1noc(NS(=O)(=O)c2ccc(N)cc2)c1C,D-3,25 µg/mL
CCCCCCCCCCCCCCN(C)C(=O)O[C@H]1C(O[C@@H]2[C@@H](C)[C@H](O[C@H]3C[C@@](C)(OC)[C@@H](OC(C)=O)[C@H](C)O3)[C@@H](C)C(=O)O[C@H](CC)[C@@](C)(O)[C@H](O)[C@@H](C)/C(=N/OCCCC3CCCCC3)[C@H](C)CC2(C)O)O[C@H](C)C[C@@H]1N(C)C,20092,0.2 µg/mL
COc1ccc(/C(C)=N/NC(N)=S)cc1,101,0.125 µg/mL
CCCCCCCCNC(=O)O[C@H]1C(O[C@@H]2[C@@H](C)[C@H](O[C@H]3C[C@@](C)(OC)[C@@H](OC(C)=O)[C@H](C)O3)[C@@H](C)C(=O)O[C@H](CC)[C@@](C)(O)[C@H](O)[C@@H](C)/C(=N/OCCCC3CCCCC3)[C@H](C)CC2(C)O)O[C@H](C)C[C@@H]1N(C)C,20092,0.2 µg/mL
CC[C@H]1OC(=O)[C@H](C)[C@@H](OC2C[C@@](C)(OC)[C@@H](O)[C@H](C)O2)[C@H](C)[C@@H](O[C@@H]2O[C@H](C)C[C@H](N(C)C)[C@H]2O)C(C)(OC)C[C@@H](C)/C(=N\OCCCOc2ccccc2)[C@H](C)[C@@H](O)[C@]1(C)O,20039,1.56 µg/mL
COc1cc(NCc2cnc3nc(N)nc(N)c3c2C)cc(OC)c1,NJ211,≤0.13 µg/mL
CC[C@H]1OC(=O)[C@H](C)[C@@H](OC2C[C@@](C)(OC)[C@@H](O)[C@H](C)O2)[C@H](C)[C@@H](O[C@@H]2O[C@H](C)C[C@H](N(C)C)[C@H]2O)C(C)(O)C[C@@H](C)/C(=N\OCCCCCc2ccccc2)[C@H](C)[C@@H](O)[C@]1(C)O,20096,6.25 µg/mL
C[C@@H]1CN(c2c(F)c(N)c3c(=O)c(C(=O)O)cn(C4CC4)c3c2F)C[C@H](C)N1,ATCC 15769,0.25 µg/mL
Cc1c(Cl)cccc1NCc1cnc2nc(N)nc(N)c2c1C,NJ168,≤0.13 µg/mL
COc1cccc2c1n([O-])c1cccc(OC)c1[n+]2=O,100,16 µg/mL
COc1ccc(OC)c(NCc2cnc3nc(N)nc(N)c3c2C)c1,NJ3404,≤0.13 µg/mL
Cc1ccc(Sc2nc(Cl)nc3nc[nH]c23)cc1C,NJ211,>12.8 µg/mL
CCCO/N=C1\[C@H](C)CC(C)(O)[C@H](O[C@@H]2O[C@H](C)C[C@H](N(C)C)[C@H]2O)[C@@H](C)[C@H](OC2C[C@@](C)(OC)[C@@H](O)[C@H](C)O2)[C@@H](C)C(=O)O[C@H](CC)[C@@](C)(O)[C@H](O)[C@H]1C,20039,1.56 µg/mL
CN[C@@H]1[C@@H](O)C(O[C@@H]2[C@@H](O)[C@H](OC3O[C@H](CN)[C@@H](O)[C@H](O)[C@H]3O)[C@@H](N)C[C@H]2NC(=O)[C@@H](O)CN)OC[C@]1(C)O,T15,12.5 µg/mL
Cc1cccc(CSc2ccncc2)c1,NJ211,>12.8 µg/mL
O=C(N1CCC(CN=c2cc3n(-c4ccc(Cl)cc4)c4ccccc4nc-3cc2Nc2ccc(Cl)cc2)CC1)N1CC1,101,16 µg/mL
CCCCCCCCCCCCCCCCO/N=C1\[C@H](C)CC(C)(O)[C@H](O[C@@H]2O[C@H](C)C[C@H](N(C)C)[C@H]2O)[C@@H](C)[C@H](OC2C[C@@](C)(OC)[C@@H](O)[C@H](C)O2)[C@@H](C)C(=O)O[C@H](CC)[C@@](C)(O)[C@H](O)[C@H]1C,20039,>50 µg/mL
CC[C@H]1OC(=O)[C@H](C)[C@@H](O[C@H]2C[C@@](C)(OC)[C@@H](O)[C@H](C)O2)[C@H](C)[C@@H](O[C@@H]2O[C@H](C)C[C@H](N(C)C)[C@H]2O)[C@](C)(OC)C[C@@H](C)C(=O)[C@H](C)[C@@H](O)[C@]1(C)O,MO-1,2 µg/mL
Cc1c(CNc2cnc3ccccc3c2)cnc2nc(N)nc(N)c12,NJ168,≤0.13 µg/mL
CCO/N=C1\[C@H](C)CC(C)(O)[C@H](O[C@@H]2O[C@H](C)C[C@H](N(C)C)[C@H]2O)[C@@H](C)[C@H](OC2C[C@@](C)(OC)[C@@H](O)[C@H](C)O2)[C@@H](C)C(=O)O[C@H](CC)[C@@](C)(O)[C@H](O)[C@H]1C,20039,3.13 µg/mL
CCCCSc1nc(Cl)nc2nc[nH]c12,NJ211,>12.8 µg/mL
CC(C)NC(=O)N1CCC(CN=c2cc3n(-c4ccc(Cl)cc4)c4ccccc4nc-3cc2Nc2ccc(Cl)cc2)CC1,109,≥16 µg/mL
Cc1c(CNc2ccc3c(c2)Cc2ccccc2-3)cnc2nc(N)nc(N)c12,NJ211,≤0.13 µg/mL
CCCCCCCCCCO/N=C1\[C@H](C)CC(C)(O)[C@H](O[C@@H]2O[C@H](C)C[C@H](N(C)C)[C@H]2O)[C@@H](C)[C@H](OC2C[C@@](C)(OC)[C@@H](O)[C@H](C)O2)[C@@H](C)C(=O)O[C@H](CC)[C@@](C)(O)[C@H](O)[C@H]1C,20039,12.5 µg/mL
CCNC(=O)[C@@H](NC(=O)Cc1ccccc1)[C@@H]1N[C@@H](C(=O)NCCNC(=O)[C@@H]2N[C@@H]([C@H](NC(=O)Cc3ccccc3)C(=O)NCC)SC2(C)C)C(C)(C)S1,CIPT 140310003 (smooth),50 µg/mL
COCc1c(CNc2ccc(OC)c(OC)c2)cnc2nc(N)nc(N)c12.O,NJ168,>13 µg/mL
CN[C@@H]1[C@H](O[C@H]2[C@H](O[C@H]3[C@H](O)[C@@H](O)[C@H](N=C(N)N)[C@@H](O)[C@@H]3N=C(N)N)O[C@@H](C)[C@]2(O)C=O)O[C@@H](CO)[C@H](O)[C@H]1O,CIPT 140310003 (smooth),6 µg/mL
CCCCCNC(=O)O[C@H]1C(O[C@@H]2[C@@H](C)[C@H](O[C@H]3C[C@@](C)(OC)[C@@H](OC(C)=O)[C@H](C)O3)[C@@H](C)C(=O)O[C@H](CC)[C@@](C)(O)[C@H](O)[C@@H](C)/C(=N/OCCCC3CCCCC3)[C@H](C)CC2(C)O)O[C@H](C)C[C@@H]1N(C)C,20045,0.2 µg/mL
CC1(C)N=C(N)N=C(N)N1OCCCOc1cc(Cl)c(Cl)cc1Cl,DW5,16 µg/mL
CO[C@H]1/C=C/O[C@@]2(C)Oc3c(C)c(O)c4c(O)c(c5c(c4c3C2=O)NC2(CCN(CC(C)C)CC2)N=5)=NC(=O)/C(C)=C\C=C\[C@H](C)[C@H](O)[C@@H](C)[C@@H](O)[C@@H](C)[C@H](OC(C)=O)[C@@H]1C,CIPT 140310002,0.5 µg/mL

For reference, 5 entries again:

smiles,strain or isolate,result
CC[C@H]1OC(=O)[C@H](C)[C@@H](OC2C[C@@](C)(OC)[C@@H](O)[C@H](C)O2)[C@H](C)[C@@H](O[C@@H]2O[C@H](C)C[C@H](N(C)C)[C@H]2O)C(C)(O)C[C@@H](C)/C(=N\OCCCCCc2ccccc2)[C@H](C)[C@@H](O)[C@]1(C)O,20096,6.25 µg/mL
COc1ccccc1Sc1ccncc1,NJ211,>12.8 µg/mL
CO[C@H]1/C=C/O[C@@]2(C)Oc3c(C)c(O)c4c(O)c(c5c(c4c3C2=O)NC2(CCN(CC(C)C)CC2)N=5)=NC(=O)/C(C)=C\C=C\[C@H](C)[C@H](O)[C@@H](C)[C@@H](O)[C@@H](C)[C@H](OC(C)=O)[C@@H]1C,CIPT 140310002,0.5 µg/mL
COc1ccc(/C(C)=N/NC(N)=S)cc1,101,0.125 µg/mL
Cc1c(CNc2ccc3c4c(cccc24)-c2ccccc2-3)cnc2nc(N)nc(N)c12,NJ3404,≤0.13 µg/mL